Compound potency records, mixed from different reports. Data source: NIAID ChemDB in PubChem.

Shared fields: whole-cell or culture tests; agent: Hepatitis C virus

Inhibition is in % at the dose shown (toxicity tests: loss of growth or viability).

NC(=O)c1ncn([C@@H]2O[C@H](CO)[C@@H](O)[C@H]2O)c1O ; cells: Huh7 ; measure: EC90 ; method: PCR ; result: >100 µM
ClCc1nc2ccccc2[nH]1 ; cells: Huh7 ; measure: EC90 ; method: replicon / PCR ; result: 0.65 µM
CC(C)OC(=O)[C@H](C)N[P@](=O)(OC[C@H]1O[C@@](C#N)(c2ccc3c(N)ncnn23)[C@](C)(O)[C@@H]1OC(=O)C(C)C)Oc1ccccc1 ; strain: 1b Con1 ; cells: 1C ; changes: N142T ; measure: fold resistance ; method: luciferase ; result: 1.1
CC(=O)N(O)CCCCCNC(=O)CCC(=O)N(O)CCCCCNC(=O)CCC(=O)N(O)CCCCCN ; cells: Huh7 ; measure: EC90 ; method: PCR ; result: >100 µM
C[C@@]1(O)[C@H](O)[C@@H](CO)O[C@H]1n1cnc2c(N)ncnc21 ; strain: genotype 1b ; cells: Huh7.5 ; changes: Y93N+V153M+M202L+M265V ; measure: EC50 ; method: luciferase / reporter gene ; result: 0.0242 µM
NC(=O)c1ncn([C@@H]2O[C@H](CO)[C@@H](O)[C@H]2O)n1 ; cells: Huh7 ; measure: EC90 ; method: PCR ; result: 100 µM
COc1ccc2c(O[C@@H]3C[C@H]4C(=O)N[C@]5(C(=O)NS(=O)(=O)C6CC6)C[C@H]5/C=C\CCCCN(C)C(=O)[C@@H]4C3)cc(-c3nc(C(C)C)cs3)nc2c1C ; strain: 1b ; tested at: 0.024 µM ; cells: Huh7 ; measure: inhibition ; method: luciferase / replicon ; result: 97.79%
N#Cc1c(-c2ccccc2-c2ccco2)nc(SCc2nc3ccccc3[nH]2)[nH]c1=O ; cells: Huh7 ; measure: EC90 ; method: replicon / PCR ; result: 0.432 µM
CC(C)(CO)C(=O)SCCOP(=O)(NCc1ccccc1)OC[C@H]1O[C@@H](n2cnc3c(=O)[nH]c(N)nc32)[C@](C)(O)[C@@H]1O ; strain: GT1b ; cells: Replicon cells ; changes: R318W ; measure: fold resistance ; method: replicon ; result: 0.75
CC(C)(C)OC(=O)N[C@@H]1CCCCC/C=C\[C@@H]2C[C@@]2(C(=O)NS(=O)(=O)C2CC2)NC(=O)[C@@H]2C[C@@H](OC(=O)N3Cc4cccc(F)c4C3)CN2C1=O ; strain: JCH2 ; cells: Huh7.5 ; measure: EC50 ; method: antigen ; result: 0.097 µM
CC(=O)Nc1ccc(-c2ccc(Cl)cc2)c(COc2ccc(-c3nc4cc(C(=O)O)ccc4n3C3CCCCC3)cc2)c1 ; strain: 5a ; cells: Huh7 ; measure: EC50 ; method: luciferase ; result: 0.1081 µM
N#Cc1c(-c2ccc(O)cc2)nc(SCc2nc3ccccc3[nH]2)[nH]c1=O ; cells: Huh7 ; measure: EC90 ; method: replicon / PCR ; result: 0.321 µM
CNC(=O)c1c(-c2ccc(F)cc2)oc2cc(N(CCO)S(C)(=O)=O)c(C3CC3)cc12 ; strain: 4a ; cells: Huh7 ; measure: EC50 ; method: luciferase ; result: 0.0162 µM
O=c1c(O)c(-c2ccc(O)cc2)oc2cc(O)cc(O)c12 ; strain: G1 ; tested at: 0.1 µM ; cells: Huh7 ; measure: inhibition ; method: PCR ; result: 35%
CC1=CC[C@H](C(=O)N(c2cc(C#CC(C)(C)C)sc2C(=O)O)C2CCC(O)(CO[C@H]3CCOC3)CC2)CC1 ; strain: GT5a ; cells: Huh7-Lunet ; measure: EC50 ; method: luciferase ; result: 0.0088 µM
COC(=O)N[C@H](C(=O)N1CCC[C@H]1c1ncc(-c2ccc(-c3ccc(-c4cnc([C@@H]5CCCN5C(=O)[C@@H](NC(=O)OC)C(C)C)[nH]4)cc3)cc2)[nH]1)C(C)C ; strain: 1b Con1 ; tested at: 0.00016 µM ; cells: Huh7 ; measure: inhibition ; method: luciferase / replicon ; result: 97.59%
CC[C@H](C)C(=O)O[C@H]1C[C@H](O)C=C2C=C[C@H](C)C(CC[C@@H](O)C[C@H](O)CC(=O)O)[C@H]21 ; cells: Huh 5-2 ; measure: EC90 ; method: luciferase / replicon ; result: >20 µM
CCC[C@H](NC(=O)[C@@H]1[C@H]2CCC[C@H]2CN1C(=O)[C@@H](NC(=O)[C@@H](NC(=O)c1cnccn1)C1CCCCC1)C(C)(C)C)C(=O)C(=O)NC1CC1 ; strain: 1b R155K ; measure: EC50 ; method: luciferase ; result: 3 µM
Nc1ccn([C@@H]2C=C(CO)[C@@H](O)[C@H]2O)c(=O)n1 ; cells: Huh7 ; measure: EC90 ; method: PCR ; result: 2.5 µM
C[C@@]1(O)[C@H](O)[C@@H](CO)O[C@H]1c1ccc2c(N)ncnn12 ; strain: GT2b ; cells: Huh7.5 ; measure: EC50 ; method: PCR ; result: 0.41 µM
CC1CCC(C(=O)N(c2cc(C#CC(C)(C)C)sc2C(=O)O)C2CCC(O)CC2)CC1 ; strain: GT-1b Con1 ; cells: Huh7-Lunet ; measure: EC50 ; method: luciferase ; result: 0.006 µM
Nc1ccn([C@@H]2C[C@H](CO)[C@@H](O)[C@H]2O)c(=O)n1 ; cells: Huh7 ; measure: EC90 ; method: PCR ; result: 25 µM
O=C(O)c1c(-c2ccccc2Cl)nc(NCc2nc3ccccc3[nH]2)[nH]c1=O ; cells: Huh7 ; measure: EC90 ; method: replicon / PCR ; result: 1.43 µM
CCN(CC)CCCC(C)Nc1ccnc2cc(Cl)ccc12 ; measure: MIC ; method: MTT ; result: 50 µM
O=C(O)c1c(-c2ccc(O)cc2)nc(NCc2nc3ccccc3[nH]2)[nH]c1=O ; cells: Huh7 ; measure: EC90 ; method: replicon / PCR ; result: 0.987 µM
C[C@@]1(O)[C@H](O)[C@@H](CO)O[C@H]1n1cnc2c(N)ncnc21 ; cells: Huh7 ; measure: EC90 ; method: PCR ; result: 1.4 µM
O=c1c(O)c(-c2ccc(O)c(O)c2)oc2cc(O)cc(O)c12 ; strain: G1 ; tested at: 5 µM ; cells: Huh7 ; measure: inhibition ; method: PCR ; result: 61%
C[C@H](Br)C(=O)c1ccc2cc(Br)c3ccccc3c2c1 ; strain: sg1b ; tested at: 50 µM ; cells: Huh7-1 ; measure: inhibition ; method: PCR ; result: <75%
O=C(O)c1c(-c2ccccc2)nc(SCc2nc3ccccc3[nH]2)[nH]c1=O ; cells: Huh7 ; measure: EC90 ; method: replicon / PCR ; result: 1.12 µM
CC[C@H]1C[C@]1(NC(=O)[C@@H]1C[C@@H]2CN1C(=O)[C@H](C(C)(C)C)NC(=O)OCC(C)(C)CCCCc1cccc3c1CN(C3)C(=O)O2)C(=O)NS(=O)(=O)C1CC1 ; strain: J6 ; cells: Huh7.5 ; measure: EC50 ; method: antigen ; result: 0.04 µM
C[C@@]1(O)[C@H](O)[C@@H](CO)O[C@H]1n1cnc2c(N)ncnc21 ; cells: JFH1 ; measure: EC50 ; method: luciferase ; result: 0.7987 µM
C[C@@]1(O)[C@H](O)[C@@H](CO)O[C@H]1n1cnc2c(N)nc(N)nc21 ; cells: Huh7 ; measure: EC90 ; method: PCR ; result: 10.4 µM
C[C@@]1(O)[C@H](O)[C@@H](CO)O[C@H]1c1coc2c(N)ncnc12 ; tested at: 50 µg/mL ; cells: HepG2-T5B ; measure: inhibition ; method: MTT ; result: 0%

Repeating the first 2 entries:

| smiles | strain | tested at | cells | changes | measure | method | result |
|---|---|---|---|---|---|---|---|
| NC(=O)c1ncn([C@@H]2O[C@H](CO)[C@@H](O)[C@H]2O)c1O |  |  | Huh7 |  | EC90 | PCR | >100 µM |
| ClCc1nc2ccccc2[nH]1 |  |  | Huh7 |  | EC90 | replicon / PCR | 0.65 µM |

Blank or dashed fields: not listed here. Fold resistance: result on the changed form divided by that on wild type. ECn: concentration that inhibits the pathogen or its effect by n%. Neighbouring rows are from separate reports.